A mixed list of measured activities; the numbers were collected in NIAID ChemDB.

Shared fields: tests in culture

Lines come from different laboratories, so protocols vary. ECn: concentration that inhibits the pathogen or its effect by n%. Blank or dashed fields: not listed here. Inhibition is in % at the dose shown (toxicity tests: loss of growth or viability). MIC50, MIC90 and the like: level of inhibition, or share of isolates inhibited.

SMILES	cell line	read by	endpoint	dose	strain	agent	result
O=C1/C(=C/c2ccc(O)c(O)c2)Oc2cc(O)ccc21			inhibition	50 µM		Cryptosporidium parvum	96%
Cc1cc(O)c2c(c1)C(=O)c1c(cnn1C)C2=O			inhibition	25 µM		Cryptosporidium parvum	11%
NC[C@@H]1O[C@H](O[C@H]2[C@@H](O)[C@H](O[C@@H]3[C@@H](O)[C@H](N)C[C@H](N)[C@H]3O[C@H]3O[C@H](CO)[C@@H](O)[C@H](O)[C@H]3N)O[C@@H]2CO)[C@H](N)[C@@H](O)[C@@H]1O	MDBK	cell count	inhibition	2000 µg/mL		Cryptosporidium parvum	81.9%
CCOC(=O)c1c(C)nc(NCCCCNc2ccnc3cc(Cl)ccc23)nc1-c1ccccc1			MIC99		L 27/01	Cryptococcus gattii	32 µg/mL
NC[C@@H]1O[C@H](O[C@H]2[C@@H](O)[C@H](O[C@@H]3[C@@H](O)[C@H](N)C[C@H](N)[C@H]3O[C@H]3O[C@H](CO)[C@@H](O)[C@H](O)[C@H]3N)O[C@@H]2CO)[C@H](N)[C@@H](O)[C@@H]1O	MDCK	luminescence	inhibition	100 µg/mL	IOWA	Cryptosporidium parvum	15.2%
CO[C@H]1/C=C/O[C@@]2(C)Oc3c(C)c(O)c4c(O)c(c5c(c4c3C2=O)NC2(CCN(CC(C)C)CC2)N=5)=NC(=O)/C(C)=C\C=C\[C@H](C)[C@H](O)[C@@H](C)[C@@H](O)[C@@H](C)[C@H](OC(C)=O)[C@@H]1C	A549		inhibition	8 µg/mL		Cryptosporidium parvum	22.9%
COc1cc(/C=C/C=C\c2ccccc2)oc(=O)c1C			inhibition	50 µM		Cryptosporidium parvum	11%
CCOC(=O)c1cnc(NCCCCNc2ccnc3cc(Cl)ccc23)nc1C			MIC99		547/OTTI-97-PI-10	Cryptococcus gattii	16 µg/mL
NC[C@@H]1O[C@H](O[C@H]2[C@@H](O)[C@H](O[C@@H]3[C@@H](O)[C@H](N)C[C@H](N)[C@H]3O[C@H]3O[C@H](CO)[C@@H](O)[C@H](O)[C@H]3N)O[C@@H]2CO)[C@H](N)[C@@H](O)[C@@H]1O			EC50			Cryptosporidium parvum	>100 µM
Oc1cccc(C=Nc2ccccc2O)c1			MIC99		1913 ER	Cryptococcus gattii	8 µg/mL
C[C@@H](c1ncncc1F)[C@](O)(Cn1cncn1)c1ccc(F)cc1F		broth dilution	MIC		CBS 11542	Cryptococcus gattii	1 µg/mL
CCOC(=O)c1c(C)nc(NCCCNc2ccnc3cc(Cl)ccc23)nc1-c1ccccc1			MIC99		23/10993	Cryptococcus gattii	5.7 µg/mL
O=C1c2ccccc2C(=O)c2[nH]ncc21			inhibition	25 µM		Cryptosporidium parvum	<10%
COc1cc(/C=C2\Oc3cc(O)cc(O)c3C2=O)ccc1O			inhibition	50 µM		Cryptosporidium parvum	96%
CC(=O)OC[C@H]1O[C@@H](O[C@@H]2[C@@H](N=[N+]=[N-])[C@H](O)[C@H](O)[C@H]3OC(C)(C)O[C@H]32)[C@H](OC(C)=O)[C@@H](OC(C)=O)[C@H]1OC(C)=O		broth dilution / turbidity	inhibition	62.5 µg/mL	ATCC 32264	Cryptococcus neoformans	15.48%
Cn1ncc2c1C(=O)c1c(O)c3c(c(O)c1C2=O)CCCC3			inhibition	100 µM		Cryptosporidium parvum	<10%
NCCCC[C@H](NC(=O)[C@H](Cc1c[nH]c2ccccc12)NC(=O)[C@H](CCCCN)NC(=O)[C@@H](N)CCCCN)C(=O)O			inhibition	12.5 µM	ATCC 32264	Cryptococcus neoformans	0%
COc1cccc2c1C(=O)c1cnn(C)c1C2=O			inhibition	25 µM		Cryptosporidium parvum	<10%
O=C(c1ccccc1)c1oc2cc(O)cc(O)c2c1O			inhibition	25 µM		Cryptosporidium parvum	17%
Oc1ccc(O)c(C=Nc2ccccc2O)c1			MIC99		27JF	Cryptococcus neoformans	11.3 µg/mL
Cc1ccc2c(c1)C(=O)c1c(cnn1C)C2=O			inhibition	10 µM		Cryptosporidium parvum	10%
Oc1ccccc1N=Cc1ccc2c(c1)OCO2			MIC99		547/OTTI-97-PI-10	Cryptococcus gattii	16 µg/mL
C[C@@H](c1nc(-c2ccc(C#N)cc2)cs1)[C@](O)(Cn1cncn1)c1cc(F)ccc1F		broth dilution	MIC90		VG IIb	Cryptococcus gattii	0.25 µg/mL
O=[N+]([O-])c1ccc(C=Nc2ccccc2O)cc1			MIC99		ATCC 32608	Cryptococcus gattii	16 µg/mL
O=C1/C(=C/c2cccc(O)c2)Oc2cc(O)ccc21			inhibition	25 µM		Cryptosporidium parvum	19%

Repeating the final 2 entries:

SMILES | cell line | read by | endpoint | dose | strain | agent | result
O=[N+]([O-])c1ccc(C=Nc2ccccc2O)cc1 |  |  | MIC99 |  | ATCC 32608 | Cryptococcus gattii | 16 µg/mL
O=C1/C(=C/c2cccc(O)c2)Oc2cc(O)ccc21 |  |  | inhibition | 25 µM |  | Cryptosporidium parvum | 19%